Results of unrelated studies side by side (data: NIAID ChemDB).

All rows: growth or infection tests; species: Coxsackie virus

Percent inhibition refers to the dose given; in toxicity tests it is the harm to the cells.

CN1CCC2(CC3CCC2(C)C3(C)C)C1 ; strain or isolate: TYPE A21 ; cell line: HeLa ; read-out: inhibition ; tested at: 100 µM ; result: 20–40%
COc1ncnc(N2CC[N+]3(CC2)CC[N+]2(CCN(c4ncnc(OC)c4[N+](=O)[O-])CC2)CC3)c1[N+](=O)[O-] ; strain or isolate: B3 ; cell line: HeLa ; read by: cytopathic effect ; read-out: EC50 ; result: >70 µg/mL
N#Cc1c(SCCCBr)nsc1-c1ccccc1 ; strain or isolate: TYPE B1 ; cell line: HEP-2 ; read by: plaque count ; read-out: EC50 ; result: >25 µg/mL
C[N+]1(C)CCN(c2ncnc(Cl)c2[N+](=O)[O-])CC1 ; strain or isolate: B3 ; cell line: HeLa ; read by: cytopathic effect ; read-out: EC50 ; result: >70 µg/mL
C1CCC2(CC1)CCNC2 ; strain or isolate: TYPE A21 ; cell line: HeLa ; read-out: inhibition ; tested at: 100 µM ; result: 20–40%
N#Cc1c(SCCCCBr)nsc1-c1ccccc1 ; strain or isolate: TYPE B1 ; cell line: HEP-2 ; read by: plaque count ; read-out: EC50 ; result: >25 µg/mL
Nc1ncnc2c1ncn2C[C@@H](CO)OCP(=O)(O)O ; strain or isolate: TYPE B4 ; read by: cytopathic effect ; read-out: EC50 ; result: >50 µM
OC(CCl)CN1CC[N+]2(CC1)CC[N+]1(CCN(CC(O)CCl)CC1)CC2 ; strain or isolate: B3 ; cell line: HeLa ; read by: cytopathic effect ; read-out: EC50 ; result: >70 µg/mL
CCOC(=O)CSc1nsc(-c2ccccc2)c1C#N ; strain or isolate: TYPE B1 ; cell line: HEP-2 ; read by: plaque count ; read-out: EC50 ; result: >200 µg/mL
CC1(Cn2cnc3c(N)ncnc32)CC1CO ; strain or isolate: TYPE B3 ; read-out: EC50 ; result: >100 µg/mL
Nc1nc(N2CC[N+]3(CC2)CC[N+]2(CCN(c4nc(N)[nH]c(=O)c4[N+](=O)[O-])CC2)CC3)c([N+](=O)[O-])c(=O)[nH]1 ; strain or isolate: B3 ; cell line: HeLa ; read by: cytopathic effect ; read-out: EC50 ; result: >70 µg/mL
Nc1ncnc2c1ncn2CCOCP(=O)(O)O ; strain or isolate: TYPE B4 ; read by: cytopathic effect ; read-out: EC50 ; result: >185 µM
N#Cc1c(N2CCOCC2)nsc1-c1ccccc1 ; strain or isolate: TYPE B1 ; cell line: HEP-2 ; read by: plaque count ; read-out: EC50 ; result: >1 µg/mL
O=C1N(CCCCCOc2ccc(-c3ccc(Cl)cc3)cc2)CCN1c1ccncc1 ; strain or isolate: TYPE B4 ; cell line: RD ; read by: plaque count ; read-out: EC50 ; result: 1.3 µM
Nc1ncnc2c1ncn2[C@@H]1C=C(CO)[C@@H](O)[C@H]1O ; strain or isolate: TYPE B4 ; read-out: MIC ; result: >10 µg/mL
O=[N+]([O-])c1c(Cl)ncnc1N1CC[N+]2(CC1)CC[N+]1(CCN(c3ncnc(Cl)c3[N+](=O)[O-])CC1)CC2 ; strain or isolate: B3 ; cell line: HeLa ; read by: cytopathic effect ; read-out: EC50 ; result: >70 µg/mL
CCN1CCC2(C1)C1CC3CC(C1)CC2C3 ; strain or isolate: TYPE A21 ; cell line: HeLa ; read-out: inhibition ; tested at: 100 µM ; result: 20–40%
C[C@H](Cn1cnc2c(N)ncnc21)OCP(=O)(O)O ; strain or isolate: TYPE B4 ; read by: cytopathic effect ; read-out: EC50 ; result: >525 µM
Cc1nc(N2CCC[N+]3(CC2)CC[N+]2(CCCN(c4nc(C)nc5c4no[n+]5[O-])CC2)CC3)c2c(no[n+]2[O-])n1 ; strain or isolate: B3 ; cell line: HeLa ; read by: cytopathic effect ; read-out: EC50 ; result: >70 µg/mL

Repeating the final 2 entries:

{"SMILES": "C[C@H](Cn1cnc2c(N)ncnc21)OCP(=O)(O)O", "strain or isolate": "TYPE B4", "read by": "cytopathic effect", "read-out": "EC50", "result": ">525 µM"}
{"SMILES": "Cc1nc(N2CCC[N+]3(CC2)CC[N+]2(CCCN(c4nc(C)nc5c4no[n+]5[O-])CC2)CC3)c2c(no[n+]2[O-])n1", "strain or isolate": "B3", "cell line": "HeLa", "read by": "cytopathic effect", "read-out": "EC50", "result": ">70 µg/mL"}

ECn: concentration that inhibits the pathogen or its effect by n%. a–b is a range or a potency band. Conditions beyond the fields shown may differ between rows.